Data from ChEMBL document CHEMBL3124763, “Optimization of furin inhibitors to protect against the activation of influenza hemagglutinin H5 and Shiga toxin” (J Med Chem, 2014).

Tests used:
[1] = Drug degradation in human DU145 cell culture medium assessed as deltaKKRT formation at 20 ug after 6 hrs by MALDI-TOF analysis; settings: du-145, 6 h
[2] = Drug degradation in human DU145 cell culture medium assessed as Ac-RARRKKR formation at 20 ug after 6 hrs by MALDI-TOF analysis; settings: du-145, 6 h
[3] = Drug degradation in human DU145 cell culture medium assessed as deltaRT formation at 20 ug after 6 hrs by MALDI-TOF analysis; settings: du-145, 6 h
[4] = Drug degradation in human DU145 cell culture medium assessed as deltaKRT formation at 20 ug after 6 hrs by MALDI-TOF analysis; settings: du-145, 6 h
[5] = Half life in cell culture medium by HPLC analysis in presence of FBS; settings: cattle

CC(=O)N[C@@H](CCCNC(=N)N)C(=O)N[C@@H](C)C(=O)N[C@@H](CCCNC(=N)N)C(=O)N[C@@H](CCCNC(=N)N)C(=O)N[C@@H](CCCNC(=N)N)C(=O)N[C@@H](CCCCN)C(=O)N[C@@H](CCCCN)C(=O)N[C@@H](CCCNC(=N)N)C(=O)N[C@H](C(N)=O)[C@@H](C)O
Stability [1]: Unstable | Stability [2]: Unstable | Stability [3]: Unstable | Stability [4]: Unstable | t1/2 [5]: 4 h
